In US20250057837A1, “Methods for Treating HCV” (priority 2015, published 2025):

System: HCV replicon Genotype 3a (GT3a NS3 protease)
Test: HCV Subgenomic Stable Replicon Cell Culture Assay, Genotype 3a
Assay type: cell-based, hepatitis C virus
Conditions: concentrations ≥100-fold over its EC50 value; replicon containing GT3a NS3 protease

CC(C)(C)[C@@H]1NC(=O)O[C@@H]2CCC[C@H]2OC/C=C/C(F)(F)c2nc3ccccc3nc2O[C@@H]2C[C@@H](C(=O)N[C@]3(C(=O)NS(=O)(=O)C4(C)CC4)C[C@H]3C(F)F)N(C2)C1=O [Compound 1]
resistant colonies selected: very few colonies
